{"source": "patent US20220226282A1", "about": "(priority 2021, published 2022)", "target": "BoNT/A LC (Clostridium botulinum, UniProt P0DPI0)", "experiment": "Intrinsic tryptophan fluorescence quenching of BoNT/A LC", "type": "binding, C. botulinum", "data": [{"smiles": "O=c1ccc2cc3c(-c4ccc([N+](=O)[O-])cc4)coc3cc2o1", "note": "[Compound 1, 3-(4-nitrophenyl)-7H-furo[3,2-g]chromen-7-one]", "values": [{"measurement": "ΔG", "setting": "T 298 K", "value": -6.02, "unit": "kcal/mol"}, {"measurement": "ΔG", "setting": "T 310 K", "value": -5.59, "unit": "kcal/mol"}]}]}
